The conditions of the data set: rats; 4 times daily administration for 7 days.

Take astodrimer sodium [SPL7013]: the “systemic absorption after application to the nasal mucosa” value is “not absorbed systemically”.
